Human monoclonal antibodies against the spike receptor-binding domain (heavy:light variable regions). IC50 against pseudoviruses bearing the spike of naturally observed variants; lower = stronger; >10 µg/ml means not reached at the top dose. No active / inactive call. The stated detection limit is 0.0005 µg/ml; values near or below 0.001 µg/ml lie at the floor of the assay.
Key:
Assay in all cases: pseudovirus neutralization IC50; higher = weaker neutralization
[1] = molecular target: SARS-CoV-2 Omicron BA.1 spike pseudovirus
Experimental: (§1)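 Single-round VSV luciferase pseudovirus mixed with antibody dilutions for 1 h and put on Huh-7 cells for about a day; IC50 from the dose curve.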

[2] = molecular target: SARS-CoV-2 Omicron BA.2 spike pseudovirus
Experimental: as §1

[3] = molecular target: SARS-CoV-2 Omicron BA.2.75 spike pseudovirus
Experimental: as §1

[4] = molecular target: SARS-CoV-2 Omicron BA.5 spike pseudovirus
Experimental: as §1

[5] = molecular target: SARS-CoV-2 Omicron BQ.1.1 spike pseudovirus
Experimental: as §1

[6] = molecular target: SARS-CoV-2 Omicron XBB spike pseudovirus
Experimental: as §1

[7] = molecular target: SARS-CoV-2 early D614G spike pseudovirus
Experimental: as §1

Binder	pseudovirus neutralization IC50 [1] [mg/L]	pseudovirus neutralization IC50 [2] [mg/L]	pseudovirus neutralization IC50 [3] [mg/L]	pseudovirus neutralization IC50 [4] [mg/L]	pseudovirus neutralization IC50 [5] [mg/L]	pseudovirus neutralization IC50 [6] [mg/L]	pseudovirus neutralization IC50 [7] [mg/L]
BD56-1261 (protein) chain 1: QVQLQESGPGLVKPSQTLSLTCTVSGGSIRNDDYYWSWIRQPPGKGLEWIGYIHYSGNTYYNPSLKSRVAISVDTSKNQFSLKLRSVTAADTAVYYCARVDVGGRLVSTFDYWGQGTLVSVSS chain 2: NFMLTQPHSVSESPGMTVTISCTGSSGSIASNYVQWYQQRPGSAPTTVIYENNQRPSGVPDRFSGSIDSSSNSASLTISGLKTEDEADYYCQSYDDSNIAVFGGGTQLTVL	5.18	1.37	2.13	0.926	0.977	3.06	0.343
BD56-1267 (protein) chain 1: QVQLEESGPGLVKPSQTLSLTCTVSGGSIRNEYYYWSWIRQPPGQGLEWIGYMHYSGNTYYNPSLKSRVAISVDMSKNQFSLKLSSVTVADTAVYYCARVDVGGRLVSTFDHWGQGTLVTVSS chain 2: NFMLTQPHSVSESPGMTVTISCTGSSGSIASNYVQWYQQRPGSAPTTVIYENDQRPSGVPDRFSGSIDSSSNSASLTISGLKTEDEADYYCQSYDDSNIAVFGGGTQVTVL	0.0107	0.00169	0.00477	0.0022	0.005	0.00725	0.00194
BD56-1263 (protein) chain 1: EVQLVESGGGLVQPGRSLRLSCAASGFTFDDYAMHWVRQAPGKGLEWVSGVSWNSGTIGYADSVKGRFIIIRDNAKNSLYLQMNSLRAEDTALYYCAKDIGRLDAMVMGNDYWGQGTLVTVSS chain 2: QSALTQPASVSGSPGQSITITCTGTSSDVGGYNFVSWYQQHPGKAPKLMIYDVTKRPSGVSNRFSGSKSGNTASLIISGLQAEDEADYYCTSYTSSSTGVFGGGTKLTVL	0.108	0.0334	0.112	0.275	> 10	2.71	0.0974
BD56-1264 (protein) chain 1: EVQLVESGGGLVQPGRSLRLSCAASGFTFDDYGMHWVRQAPGKGLEWVAGISWKSGKTVYADSVKGRFTISRDNARNSVYLQMNTQRAEDTALYYCAKDMGWNDDILTGLSFNMDVWGQGTTVTVSS chain 2: DIVLTQSPGTLSLSPGERATLSCRASQSVSSSSLAWYQQKPGQAPRFLIYAASSRATGIPDRFSGSGSGTDFTLTISRLEPEDFAVYYCQQCGSSTTTFGQGTKVEIK	> 10	> 10	> 10	> 10	> 10	> 10	> 10
BD56-1258 (protein) chain 1: QVQLVQSGAEVKRPGSSVKVSCKASGGTFSSSGISWVRQAPGQGLEWMGRIIPVLGITNYAQKFQGRVTITADKSTSTVYMDMSSLTSEDTAMYYCARDQNTVTTFGIGHYYGMDVWGQGSTVTVSS chain 2: DIQMTQPSTLSASVGDRVTITCRASQSISSWLAWYQQKPGKAPKLLIYDASSLESGVPSRFSGSGSGTDFTLTISSLQPGDFATYYCQQYNSYPLFGQGTKVEIK	0.0397	0.0289	0.0253	> 10	> 10	> 10	0.0329
BD56-1268 (protein) chain 1: EVQLVESGGGLVQPGRSLRLSCEASGFTFDDYAMHWVRQAPGKGLEWVSGVSWNSGTIGYADSVKGRFFIIRDNGGNSLYLQMIRLRVEDTALYYCAKDTRRSTGQGEAYGLDVWGRGTTVTVSS chain 2: QSALTQPASVSGSPGQSITFSCTGTSSDVGSYNLVSWYQQHPGRAPKLIISEVSKRPSGISNRFSGSKSGNTASLTISGLQAEDEADYYCCSYAENTTFEGVIFGGGTKLTVL	0.0065	0.00721	0.00718	0.0524	> 10	1.84	0.0103

From the supplement of paper PMC9931576
